Compound potency records, mixed from different reports. Data source: NIAID ChemDB in PubChem.

Shared fields: growth or infection tests; agent: HIV-1; measure: EC50

ECn: concentration that inhibits the pathogen or its effect by n%. Lines come from different laboratories, so protocols vary. An empty or dashed field is not shown.

structure	strain	changes	cell line	read by	conditions	result
Cc1ccc(S(=O)(=O)c2c(C(=O)NNCCO)[nH]c3ccc(Cl)cc23)c(C)c1	IIIB	-	MT-4 + C8166	cytopathic effect / MTT	-	0.08 µM
NC(=O)C(c1ccccc1)(c1ccccc1)[C@H]1CCCN(CCc2ccc3c(c2)CCO3)C1	NL4-3	-	PM1	p24	-	2.6 µM
COC(=O)[C@H](C)NP(=O)(OC[C@@H]1C=C[C@H](n2cc(C)c(=O)[nH]c2=O)O1)Oc1ccc(Br)cc1	1617-1 NRTI resistant recombinant	RT-T69K K70G V75I F77L F116Y Q151M M184V	PBMC	p24	-	0.0199 µM
Cc1ccc(NC(=O)CSc2nnc(C)n2-c2ccccc2)c(Br)c1	NL4-3	RT-K103N Y181C	HeLa + HeLa-JC53	luciferase	-	1.3 µM
CCn1nc(Cc2cc(F)cc(F)c2)cc1C1CCN(C[C@H]2CN([C@@H](C(=O)O)C(C)C)C[C@@H]2c2cccc(F)c2)CC1	BaL	-	HeLa	β-galactosidase	50% human serum	<0.3 µM
Nc1ccn([C@H]2CC[C@@H](CO)O2)c(=O)n1	HXB2D (RT-M184V)	RT-M184V	CBMC	p24	-	2.2 ± 0.3 µM
CCn1nc(Cc2ccc(Oc3ccccc3)cc2)cc1C1CCN(C[C@H]2CN([C@@H](C(=O)O)C(C)C)C[C@@H]2c2cccc(F)c2)CC1	BaL	-	HeLa	β-galactosidase	-	<0.011 µM
Cc1cn([C@H]2C[C@H](N=[N+]=[N-])[C@@H](CO)O2)c(=O)[nH]c1=O	7295-1 NRTI resistant recombinant	RT-D67N T69N K70R M184V T215F K219Q	PBMC	p24	-	0.137 µM
Nc1ccn([C@H]2CC[C@@H](CO)O2)c(=O)n1	IIIB	-	PBL(PHA STIM.) + PBL	RT activity	-	0.23 ± 0.29 µM
Cn1c2ccccc2c2c3c(c4c5ccccc5n(CCC#N)c4c21)CNC3=O	-	-	U1/HIV-1(PMA) + U1	p24	-	0.04 µM
O=c1[nH]c(=O)n([C@H]2C[C@H](F)[C@@H](CO)O2)cc1Cl	RT Y181C (NNRTI-resistant)	RT-Y181C	CD4+HELA + HeLa	plaque count	-	13.7 µM
CC[C@H](C)[C@H](NC(=O)[C@H](C)NC(=O)CNC(=O)[C@@H](NC(=O)[C@H](C)N)C(C)C)C(=O)NCC(=O)O	WMJ	-	HeLa + HELA CD4+	syncytia	-	~2500 µM
Cc1cc(S(N)(=O)=O)ccc1NC(=O)COc1ccc(Cl)cc1C(=O)c1cc(Cl)cc(C#N)c1	NNRTI-resistant (RT E138K)	RT-E138K	MAGI	β-galactosidase	-	0.0013 µM
CCn1nc(Cc2ccc(OC)cc2)cc1C1CCN(C[C@H]2CN([C@@H](C(=O)O)C(C)C)C[C@@H]2c2cccc(F)c2)CC1	BaL	-	HeLa	β-galactosidase	-	<0.0004 µM
Nc1nccc2c1ncn2[C@@H]1C[C@H](CO)[C@@H](O)[C@H]1O	A012 POST-AZT	-	PBL	p24	-	0.365 µM
CC(C)(C)NC(=O)[C@@H]1CN(Cc2cccnc2)CCN1C[C@@H](O)C[C@@H](Cc1ccccc1)C(=O)N[C@H]1c2ccccc2C[C@H]1O	NL4-3	-	CEM-GXR	GFP / reporter gene	-	0.029 µM
Cc1cc(C)cc(S(=O)(=O)c2c(C(N)=O)[nH]c3ccc(Cl)cc23)c1	IIIB Ba-L	-	Macrophage	p24	-	0.115 µM
Cc1cn([C@H]2C[C@H](N=[N+]=[N-])[C@@H](CO)O2)c(=O)[nH]c1=O	-	-	MAGI	β-galactosidase	-	<5 µg/mL
Cc1nnc(SCC(=O)Nc2ccc(S(N)(=O)=O)cc2Cl)n1-c1cccc2cccnc12	NL4-3	RT-Y188L	HeLa + HeLa-JC53	luciferase	-	2.4 µM
CCn1nc(Cc2ccc(OC(F)F)cc2)cc1C1CCN(C[C@H]2CN([C@@H](C(=O)O)C(C)(C)C)C[C@@H]2c2cccc(F)c2)CC1	BaL	-	HeLa	β-galactosidase	50% human serum	<0.011 µM
Cc1ccc2ccccc2c1-n1c(C)nnc1SCC(=O)Nc1ccccc1Br	NL4-3	RT-K103N Y181C	HeLa + HeLa-JC53	luciferase	-	0.065 µM
CN1Cc2c(c3c4ccccc4n(C)c3c3c2c2ccccc2n3CCC#N)C1=O	-	-	U1/HIV-1(PMA) + U1	syncytia	-	>>1 µM
Nc1ccn([C@@H]2CS[C@H](CO)O2)c(=O)n1	56252-1 NRTI resistant recombinant	RT-T69K K70G V75I F77L F116Y Q151M M184V	PBMC	RT activity	-	0.007208 µM
Cc1ccc(NC(=O)CSc2nnc(C)n2-c2ccc(C)c3ccccc23)c(Cl)c1	NL4-3	RT-Y188L	HeLa + HeLa-JC53	luciferase	-	0.1 µM
CCCCCCCCCCCCCC(=O)O[C@H]1CCC(NC(=O)[C@H](OC)[C@H](O)[C@@H](O)[C@H](O)/C=C/C(C)C)C(=O)NC1	NL4-3	-	CEM-GXR	GFP / reporter gene	-	0.015 µM
CCCOc1ccc(Cc2cc(C3CCN(C[C@H]4CN([C@@H](C(=O)O)[C@@H](C)CC)C[C@@H]4c4cccc(F)c4)CC3)n(CC)n2)cc1	BaL	-	HeLa	β-galactosidase	50% human serum	<0.1 µM
COC(=O)[C@H](Cc1c[nH]c2ccccc12)NP(=O)(O)OC[C@H]1O[C@@H](n2cnc3cnccc32)[C@H](O)[C@@H]1O	A012 POST-AZT	-	PBL	p24	-	>10 µM
Cc1nn([C@H]2C[C@H](N=[N+]=[N-])[C@@H](CO)O2)c(=O)[nH]c1=O	LAV Laboratory strain	-	PBMC (mitogen stimulated) + PBMC	RT activity	-	>100 µM
N#CCCn1c2ccc(O)cc2c2c3c(c4c5cc(O)ccc5[nH]c4c21)C(=O)NC3	-	-	U1/HIV-1(PMA) + U1	syncytia	-	0.35 µM

Repeating the first 3 entries:

structure,strain,changes,cell line,read by,conditions,result
Cc1ccc(S(=O)(=O)c2c(C(=O)NNCCO)[nH]c3ccc(Cl)cc23)c(C)c1,IIIB,-,MT-4 + C8166,cytopathic effect / MTT,-,0.08 µM
NC(=O)C(c1ccccc1)(c1ccccc1)[C@H]1CCCN(CCc2ccc3c(c2)CCO3)C1,NL4-3,-,PM1,p24,-,2.6 µM
COC(=O)[C@H](C)NP(=O)(OC[C@@H]1C=C[C@H](n2cc(C)c(=O)[nH]c2=O)O1)Oc1ccc(Br)cc1,1617-1 NRTI resistant recombinant,RT-T69K K70G V75I F77L F116Y Q151M M184V,PBMC,p24,-,0.0199 µM